Results from PMC2716335, “Isolation of a human-like antibody fragment (scFv) that neutralizes ricin biological activity” (2009).

Molecular target: scFv 43RCA (Macaca fascicularis)
Assay: SPR

“ricin (whole toxin, Ricinus communis) (from UniProt P02879) (natural protein)” was tested. Which Kd did it give?
The Kd was 0.04 nM and 0.0408 nM and 0.0409 nM.

What about the koff of the same substance?
Its koff is 1.36e-05 s⁻¹.

And the kon?
Its kon is 334000 M⁻¹ s⁻¹.

Several values for one entry are separate records, joined by “and”; a condition that tells them apart may be missing. Equal entries are not always repeated.
